Experimental data as given in PMC4081560 (PLoS ONE, 2014).

Tests used:
[1] = system: oseltamivir-resistant K/2785 virus; assay: monotherapy of mice after lethal challenge (survival, MDD); assay type: in vivo, DBA/2 mice; conditions: twice a day for five days from 4 hpi, 2 MLD50
[2] = system: oseltamivir-resistant K/2785 virus; assay: combination therapy of mice after lethal challenge (survival, MDD, synergism); assay type: in vivo, DBA/2 mice; conditions: five days from 4 hpi

## CCC(CC)[C@H](NC(C)=O)[C@@H]1[C@H](O)[C@@H](C(=O)O)C[C@H]1NC(=N)N
[1]; peramivir 22.5 mg/kg/day i.m.
  % survival: 0/7 (0.0%)
[1]; peramivir 45 mg/kg/day i.m.
  % survival: 1/7 (14.3%)
[1]; peramivir 90 mg/kg/day i.m.
  % survival: 5/7 (71.4%)*
[2]; peramivir 25 mg/kg/day i.m. alone
  % survival: 0/10 (00.0%)
[2]; peramivir 25 mg/kg/day i.m. alone, listed as peramivir
  % survival: 0%
[2]; peramivir 50 mg/kg/day i.m. alone
  % survival: 2/10 (20.0%)
[2]; peramivir 50 mg/kg/day i.m. alone, listed as peramivir
  % survival: 20%
[2]; peramivir 100 mg/kg/day i.m. alone
  % survival: 5/10 (50.0%)*
[2]; peramivir 100 mg/kg/day i.m. alone, listed as peramivir
  % survival: 50%

Marks after values point to notes of the source that are not given here.
